Pooled drug test results. Numbers come from NIAID ChemDB, via PubChem.

Shared fields: growth or infection tests; species: Mycobacterium fortuitum

A number after MIC or MFC names an inhibition level or a share of isolates.

smiles,strain or isolate,read by,measure,value
CO[C@@]1(NC(=O)Cc2ccccc2)C(=O)N2C(C(=O)[O-])=C(CSc3nnc(C)s3)CSC21,1263,-,MIC,50 µg/mL
CN1CCN(c2c(F)cc3c(=O)c(C(=O)O)cn(CCF)c3c2F)CC1,18367,-,MIC50,1.56 µg/mL
Cc1noc2nc(C)n(/N=C/c3ccncc3)c(=O)c12,PCM 672,resazurin,MIC90,>100 µg/mL
CO[C@@]1(NC(=O)CSCC#N)C(=O)N2C(C(=O)O)=C(CSc3nnnn3C)CS[C@@H]21,4-May,-,MIC,6.25 µg/mL
CC(C)N=c1cc2n(-c3ccc(Cl)cc3)c3ccccc3nc-2cc1Nc1ccc(Cl)cc1,TB87,-,MIC,2 µg/mL
CO[C@@]1(NC(=O)CCCC(N)C(=O)O)C(=O)N2C(C(=O)O)=C(COC(C)=O)CSC21,4-May,-,MIC,>100 µg/mL
NC[C@H]1O[C@H](O[C@H]2[C@H](O)[C@@H](O[C@H]3O[C@H](CO)[C@@H](O)[C@H](N)[C@H]3O)[C@H](N)C[C@@H]2N)[C@H](O)[C@@H](O)[C@@H]1O,31 isolates,-,MIC50,64 µg/mL
Cc1noc2ncn(/N=C/c3ccc([N+](=O)[O-])cc3)c(=O)c12,PCM 672,resazurin,MIC90,62.5 µg/mL
CO[C@@]1(NC(=O)Cc2cccs2)C(=O)N2C(C(=O)O)=C(COC(N)=O)CS[C@@H]21,1004-8,-,MIC,25 µg/mL
NCC[C@H](O)C(=O)N[C@@H]1C[C@H](N)[C@@H](O[C@H]2O[C@H](CN)[C@@H](O)[C@H](O)[C@H]2O)[C@H](O)[C@H]1O[C@H]1O[C@H](CO)[C@@H](O)[C@H](N)[C@H]1O,ATCC 6841,-,MBC,>64 µg/mL
CO[C@@]1(NC(=O)CCCC(N)C(=O)O)C(=O)N2C(C(=O)O)=C(COC(N)=O)CSC21,1045,-,MIC,>100 µg/mL
CC[C@H]1OC(=O)[C@H](C)[C@@H](O[C@H]2C[C@@](C)(OC)[C@@H](O)[C@H](C)O2)[C@H](C)[C@@H](O[C@@H]2O[C@H](C)C[C@H](N(C)C)[C@H]2O)[C@](C)(OC)C[C@@H](C)C(=O)[C@H](C)[C@@H](O)[C@]1(C)O,ATCC 6841,-,MBC,>8 µg/mL
Cc1noc(N)c1C(=O)N/N=C/c1ccc(C(F)(F)F)cc1,PCM 672,resazurin,MIC90,62.5 µg/mL
CC[C@H]1OC(=O)[C@H](C)[C@@H](O[C@H]2C[C@@](C)(OC)[C@@H](O)[C@H](C)O2)[C@H](C)[C@@H](O[C@@H]2O[C@H](C)C[C@H](N(C)C)[C@H]2O)[C@](C)(O)C[C@@H](C)CN(C)[C@H](C)[C@@H](O)[C@]1(C)O,ATCC 6841,-,MBC,>8 µg/mL
C[C@@H]1CN(c2c(F)c(N)c3c(=O)c(C(=O)O)cn(C4CC4)c3c2F)C[C@H](C)N1,20 strains,-,MIC50,1.56 µg/mL
NC[C@@H]1O[C@H](O[C@H]2[C@@H](O)[C@H](O[C@@H]3[C@@H](O)[C@H](N)C[C@H](N)[C@H]3O[C@H]3O[C@H](CN)[C@@H](O)[C@H](O)[C@H]3N)O[C@@H]2CO)[C@H](N)[C@@H](O)[C@@H]1O,31 isolates,-,MIC50,8 µg/mL
CCc1cc(C(N)=S)ccn1,22 strains,-,MIC50,5 µg/mL
NC1CCN(c2c(F)cc3c(=O)c(C(=O)O)cn(C4CC4)c3c2Cl)C1,ATCC 6841,-,MBC,0.5 µg/mL
COc1ccc(/C=N/NC(=O)c2c(C)noc2N)cc1,PCM 672,resazurin,MIC90,62.5 µg/mL
CC(C)N=c1cc2n(-c3ccc(Cl)cc3)c3ccccc3nc-2cc1Nc1ccc(Cl)cc1,-,broth dilution,MIC50,≤0.5 µg/mL
C[C@H]1COc2c(N3CCN(C)CC3)c(F)cc3c(=O)c(C(=O)O)cn1c23,25 isolates,-,MBC90,4 µg/mL
CC1COc2c(N3CCN(C)CC3)c(F)cc3c(=O)c(C(=O)O)cn1c23,NCTC 10394,-,MBC,4 µg/mL

The first 2 rows once more:

smiles,strain or isolate,read by,measure,value
CO[C@@]1(NC(=O)Cc2ccccc2)C(=O)N2C(C(=O)[O-])=C(CSc3nnc(C)s3)CSC21,1263,-,MIC,50 µg/mL
CN1CCN(c2c(F)cc3c(=O)c(C(=O)O)cn(CCF)c3c2F)CC1,18367,-,MIC50,1.56 µg/mL

Blank or dashed fields: not listed here. Neighbouring rows are from separate reports.